Article doi:10.1101/2025.07.07.663466v1 (biorxiv, 2025)

Key:
Assay in all cases: purified protein
[1] = tested on: CC(=O)Oc1ccc([N+](=O)[O-])cc1; details: pH 7.6; 37.0 °C
[2] = tested on: CCCC(=O)Oc1ccc([N+](=O)[O-])cc1; details: pH 7.6; 37.0 °C
[3] = tested on: CCCCCCCCCCCCCCCC(=O)SCCNC(=O)CCNC(=O)[C@H](O)C(C)(C)COP(=O)(O)OP(=O)(O)OC[C@H]1O[C@@H](n2cnc3c(N)ncnc32)[C@H](O)[C@@H]1OP(=O)(O)O; details: pH 7.2

Substance “M. tuberculosis GroEL1 (Cpn60.1) (Mycobacterium tuberculosis H37Rv)” has a Km [1] of 1130 ± 740 µM, a Km [2] of 180 ± 80 µM and a Km [3] of 25.95 ± 3.52 µM.
